Test results: US20240043507A1
pKd: −log10 of the molar value.

Biological target: SARS-CoV-2 spike receptor binding domain, native (SARS-CoV-2) (UniProt P0DTC2)
Experiment: BLI, RBD on AR2G biosensor, mAb as analyte

Substance: AZD8895 (antibody)
- pKd: 8.66
